The target of the experiment is SARS-CoV-2 3CL-protease (Severe acute respiratory syndrome coronavirus 2 (2019-nCoV) (SARS-CoV-2), UniProt P0DTD1). Description: SARS-CoV-2 3C-like (3CL) protease fluorescence assay (FRET). The experiment is classed as biochemical. The conditions noted are these: recombinant SARS-CoV-2 3CL-protease 10 nM, 30 min preincubation at RT, TAMRA-SITSAVLQSGFRKMK-Dabcyl-OH substrate, run in duplicate. The protocol: SARS-CoV-2 3C-like (3CL) protease fluorescence assay (FRET): Recombinant SARS-CoV-2 3CL-protease was expressed and purified. TAMRA-SITSAVLQSGFRKMK-Dabcyl-OH peptide 3CLpro substrate was synthesized. Black, low volume, round-bottom, 384 well microplates were used. In a typical assay, 0.85 μL of test compound was dissolved in DMSO then incubated with SARS-CoV-2 3CL-protease (10 nM) in 10 μL assay buffer (50 mM HEPES [pH 7.5], 1 mM DTT, 0.01% BSA, 0.01% Triton-X 100) for 30 min at RT. Next, 10 μL of 3CL-protease substrate (40 μM) in assay buffer was added and the assays were monitored continuously for 1 h in an Envision multimode plate reader operating in fluorescence kinetics mode with excitation at 540 nm and emission at 580 nm at RT. No compound (DMSO only) and no enzyme controls were routinely included in each plate. All experiments were run in duplicate. Data Analysis: SARS-CoV-2 3CL-protease enzyme activity was measured as initial velocity of the linear phase (RFU/s) and normalized to controlled samples DMSO (100% activity) and no enzyme (0% activity) to determine percent residual activity at various concentrations of test compounds (0-10 μM). Data were fitted to normalized activity (variable slope) versus concentration fit in GraphPad Prism 7 to determine IC50. All experiments were run in duplicate, and IC50 ranges are reported as follows: A<0.1 μM; B 0.1-1 μM; C>1 μM.

Usually IC50 stands for the midpoint of a concentration-inhibition curve. As for “(3R,5'S)-1′-((S)-4-methyl-2-(2-oxo-3-(1H-pyrazol-3-yl) yridine-1(2H)-yl)pentanoyl)-2-oxospiro[indoline-3,3′-pyrrolidine]-5′-carbonitrile [Compound 25-a]”, the 50% inhibitory concentration (IC50) was less than 100 nM.
